Pooled drug test results. Numbers come from NIAID ChemDB, via PubChem.

All rows: tests in culture; species: Mycobacterium tuberculosis

MIC bound: limit read from a one-dose screen.

structure,dose,changes,setting,strain,read by,measure,result
O=C(N/N=C/c1ccc(Cl)cc1Cl)c1c[nH]c2cc(Cl)ccc2c1=O,,,,RCMB 010126,resazurin,MIC,99.84 µg/mL
CC(=O)N(O)C/C=C/P(=O)(O)O,,,,,broth dilution,MIC99,>200 µg/mL
Cn1c2ccccc2c2cc(C=NNc3nc(-c4ccc(Br)cc4)cs3)ccc21,,,,H37Rv,fluorescence,EC50,110 µM
Cc1cc[n+](CC(=O)c2ccc(F)cc2)cc1.[Br-],,,multidrug-resistant,Clinical isolate,resazurin,EC50,8 µg/mL
CCCCC/C=C\CCCCCC,,,,H37Rv,BACTEC,MIC,≥128 µg/mL
Clc1cc(Cl)cc(CNCCc2c[nH]c3ccccc23)c1,,,,H37Ra,,MIC,32 µg/mL
CN(C)CCOC(C)(c1ccccc1)c1ccc(Cl)cc1,,,,H37Rv,,MIC,32 µg/mL
O=C(N/N=C/c1ccccc1)C(=O)N/N=C/c1ccccc1,6.25 µg/mL,,,H37Rv,resazurin,inhibition,-24%
Cn1c2ccccc2c2cc(C=NNc3nc(-c4cccc([N+](=O)[O-])c4)cs3)ccc21,,,,H37Rv,fluorescence,EC50,>200 µM
COc1ccc(N2CCN(Cc3ccc([N+](=O)[O-])o3)CC2)cc1,,Isoniazid- and rifampicin-resistant,,MDR,resazurin,MIC,>25.2 µM
COc1ccc(OC)c(NCc2cnc3nc(N)nc(N)c3c2C)c1,,,,H37Rv,,MIC,12.5 µg/mL
CN(C)CCCN1c2ccccc2Sc2ccc(Cl)cc21,,,,H37Rv,,MBC,40 µg/mL
COC(=O)c1ccc(N2CCOS(=O)OCC2)cc1OC(=O)c1ccccc1,12.5 µg/mL,,,H37Rv,BACTEC,inhibition,38%
CO[C@H]1/C=C/O[C@@]2(C)Oc3c(C)c(=O)c4c(O)c(c5oc6cc(N(C)C)ccc6nc5c4c3C2=O)NC(=O)/C(C)=C\C=C\[C@H](C)[C@H](O)[C@@H](C)[C@@H](O)[C@@H](C)[C@H](OC(C)=O)[C@@H]1C,,,,H37Rv,,MIC,0.07 µg/mL
Clc1ccc(CNCc2c[nH]c3ccccc23)c(Cl)c1,,,,H37Ra,,MIC,32 µg/mL
Oc1[nH]c2ccc(OC(F)(F)F)cc2c1N=NC(=S)NCc1ccccc1,,,,H37Rv,broth dilution / resazurin,EC90,>100 µg/mL
COc1cc(-c2nnnn2S(=O)(=O)c2ccc(C)cc2)ccc1OCC(O)(Cn1cncn1)c1ccc(Cl)cc1Cl,,,,H37Rv,resazurin,MIC100,3.12 µg/mL
Cn1cc(NC(=O)c2cc(NC(=O)c3cc(NC=O)cn3C)cn2C)cc1C(=O)NCCC(=N)N,,,,TAC-R,,MIC,12.8 µg/mL
CN(C)CCCN1c2ccccc2CCc2ccccc21,,,,H37Ra,,MIC,32 µg/mL
C=C1C(=O)O[C@@H]2C[C@@]3(C)C=CC(=O)C(=C)[C@@H]3C[C@H]12,,,,ETA-R,,MIC,12.5 µg/mL
Cn1c2ccccc2c2cc(C=NNc3nc(-c4cc5ccccc5oc4=O)cs3)ccc21,,,,H37Rv,fluorescence,EC90,>25 µM
CCCCCC(=O)Oc1ccc2c(c1)[nH]c1c(C)nccc12,6.25 µg/mL,,,H37Rv,,inhibition,16%
O=C1OCCOCCOCCOCCOCCOC(=O)C1c1ccccc1,,,,H37Rv,BACTEC,MIC bound,>12.5 µg/mL
NNC(=O)c1ccncc1,,,,131-4,,MBC,0.05 µg/mL
Clc1ccc(Cn2c(CN3CCCC3)nc3ccccc32)cc1,,,,H37Ra,,MIC,32 µg/mL
Cn1c2ccccc2c2cc(C=NNc3nc(-c4cc5cc(Br)ccc5oc4=O)cs3)ccc21,,,,H37Rv,fluorescence,EC90,>200 µM
CCN(CC)CCN=c1nc(/C=C/C=C/NN(C)C(=S)SC)c(C)nn1C,128 µg/mL,,,H37Rv,BACTEC,inhibition,100%
Cc1ccc2c(c1)c(N=NC(=S)NC1CCCCC1)c(O)n2C,,,,H37Rv,broth dilution / resazurin,EC90,>100 µg/mL
N#Cc1c(=O)c2cc([N+](=O)[O-])ccc2n2c1[nH]c1ccccc12,6.25 µg/mL,,,H37Rv,resazurin,inhibition,8%
CCOC(=O)Nc1cc(N[C@H](C)C(O)c2ccc(O)cc2)c([N+](=O)[O-])c(N)n1,,,,H37Rv,,EC50,>12.5 µg/mL
NC(=S)N/N=C\c1ccccc1,,,,H37Ra,,MIC,0.179 µg/mL
Cn1c2ccccc2c2cc(C=NNC(N)=S)ccc21,,,,H37Rv,fluorescence,EC50,1.6 µM
CSc1nc2c(c(O)c(C)c(=O)n2C2OC(COC(C)=O)C(OC(C)=O)C(OC(C)=O)C2OC(C)=O)c(=O)n1C,6.25 µg/mL,,,H37Rv,resazurin,inhibition,-5%
COc1ccc(C(OCCN(C)C)c2ccccc2)cc1,,,,H37Ra,,MIC,64 µg/mL
CC[C@@H](CO)NCCN[C@@H](CC)CO,,,,H37Rv,agar,MIC,0.15 µM
CO[C@H]1/C=C/O[C@@]2(C)Oc3c(C)c(O)c4c(O)c(c(/C=N/N5CCN(C)CC5)c(O)c4c3C2=O)NC(=O)/C(C)=C\C=C\[C@H](C)[C@H](O)[C@@H](C)[C@@H](O)[C@@H](C)[C@H](OC(C)=O)[C@@H]1C,,,,H37Rv,broth dilution / visual reading,MIC,0.008 µg/mL
Cc1ccc(-c2cnnc(N3CCC(c4ccccc4)C3)n2)o1,,,,H37Rv-CV-lux-AB,low oxygen,MIC,54.7 µM
COc1nn(Cc2ccccc2F)c2ccc([N+](=O)[O-])cc12,6.25 µg/mL,,,H37Rv,resazurin,inhibition,29%
Fc1ccc(CNCc2c[nH]c3ccccc23)cc1F,,,,H37Ra,,MIC,32 µg/mL
O=C(Nc1ccc(C2=NCCN2)cc1)c1ccc(C(=O)Nc2ccc(C3=NCCN3)cc2)c(Br)c1,12.5 µg/mL,,,H37Rv,BACTEC,inhibition,100%
Cn1c2ccccc2c2cc(C=NNc3nc(-c4ccc(F)cc4)cs3)ccc21,,,,H37Rv,fluorescence,EC50,61 µM
CC1(C)C=Cc2cc3cc(O)c(=O)oc3cc2O1,,,,,agar / visual reading,MIC,16 µg/mL
CCCCCCCC(=O)Oc1ccc2c(c1)[nH]c1c(C)nccc12,6.25 µg/mL,,,H37Rv,,inhibition,24%
C[C@H]1COC2(CCN(C3=NC(=O)c4cc(C(F)(F)F)cc([N+](=O)[O-])c4S3(=O)=O)CC2)O1,,,,H37Rv,resazurin / fluorescence,MIC,1.46 µg/mL
COc1ccc(/C=N/NC(=O)c2c[nH]c3cc(Cl)ccc3c2=O)cc1OC,,,,RCMB 010126,resazurin,MIC,24.96 µg/mL
CCC(=O)Oc1ccc2c(c1)[nH]c1c(C)nccc12,6.25 µg/mL,,,H37Rv,,inhibition,38%
O=S1(N2CC2)=NP(N2CC2)(N2CC2)=NP(N2CC2)(N2CC2)=N1,,,,H37Rv,BACTEC,MIC,≥128 µg/mL
CN1CCC(=C2c3ccccc3C=Cc3ccccc32)CC1,,,,H37Rv,,MIC,32 µg/mL
Cc1ccc2c(c1)c(N=NC(=S)Nc1ccccc1Br)c(O)n2C,,,,H37Rv,broth dilution / resazurin,EC50,>100 µg/mL
OC(C1CO1)C(O)C1CO1,6.25 µg/mL,,,H37Rv,resazurin,inhibition,33%
CCOC(=O)Nc1cc(NC(c2ccc(Cl)cc2)c2ccc(Cl)cc2)c([N+](=O)[O-])c(N)n1,,,,H37Rv,,EC50,>12.5 µg/mL
CO[C@H]1/C=C/O[C@@]2(C)Oc3c(C)c(O)c4c(O)c(c(/C=N/N5CCN(C)CC5)c(O)c4c3C2=O)NC(=O)/C(C)=C\C=C\[C@H](C)[C@H](O)[C@@H](C)[C@@H](O)[C@@H](C)[C@H](OC(C)=O)[C@@H]1C,,,,H37Rv,resazurin / absorbance,EC50,0.55 µM
O=C(c1ccccc1)N1N=C(c2ccccn2)CC1c1cccc(Oc2ccccc2)c1,1 µg/mL,,,H37Rv,,inhibition,100%
CCOC(=O)Nc1cc2c(c(N)n1)N=C(c1ccc(OC)cc1)CS2,,,,H37Rv,,EC50,>12.5 µg/mL
Cc1nc(-n2nc(-c3ccccc3)cc2-c2ccccc2)sc1C(=O)/C=C/c1ccc(Cl)cc1,,,,H37Rv,resazurin,MIC bound,>6.25 µg/mL
CCc1nc2ccc(Cl)cn2c1C(=O)NCc1ccc(N2CCC(c3ccc(OC(F)(F)F)cc3)CC2)cc1,,,,N0145,turbidity,MIC50,0.0028 µM
Cc1nc(N)c2ncn([C@@H]3O[C@H](CO)[C@@H](O)[C@H]3O)c2n1,,,,H37Ra,,MIC,5 µg/mL
Cc1ccc2nc3[nH]c(=O)[nH]c(=O)c3c(C(N)=O)c2c1,6.25 µg/mL,,,H37Rv,BACTEC,inhibition,0%
Cc1[nH]ccc2c1[nH]c1cc(=O)ccc12,6.25 µg/mL,,,H37Rv,,inhibition,29%
CNC(=S)N=Nc1c(O)[nH]c2ccc(C)cc12,,,,H37Rv,broth dilution / resazurin,EC90,>100 µg/mL
COc1cc(Cc2cnc(N)nc2N)cc(OC)c1OC,,,,H37Ra,,MIC,179 µg/mL
Clc1cccc(CNCc2c[nH]c3ccc(Br)cc23)c1,,,,H37Ra,,MIC,8 µg/mL
O=C(c1ccc(Br)cc1)C1SC2(C(=O)c3ccc(Br)cc3)SC(C(=O)c3ccc(Br)cc3)C(C(=O)c3ccc(Br)cc3)SC2(C(=O)c2ccc(Br)cc2)SC1C(=O)c1ccc(Br)cc1,,,,H37Rv,BACTEC,MIC bound,>12.5 µg/mL
COc1cc(O)c2c(=O)c(-c3ccc(O)cc3O)coc2c1,,,,,agar / visual reading,MIC,110 µg/mL
CCOC(=O)Nc1cc(NCCC(=O)c2ccccc2)c([N+](=O)[O-])c(N)n1,,,,H37Rv,,EC50,>12.5 µg/mL
COc1cc(-c2nnnn2S(=O)(=O)c2ccc(C)cc2)ccc1OCC(O)(Cn1cncn1)c1ccc(F)cc1F,,,,H37Rv,resazurin,MIC100,6.25 µg/mL
CCCCNC(=S)N=Nc1c(O)n(C)c2ccc(OC(F)(F)F)cc12,,,,H37Rv,broth dilution / resazurin,EC90,>100 µg/mL
CNCCc1c[nH]c2ccccc12,,,,H37Ra,,MIC,256 µg/mL
N#Cc1nc(-c2ccco2)c(-c2ccco2)nc1C#N,,,,H37Rv,resazurin,MIC bound,>6.25 µg/mL
Nc1ccc(S(=O)(=O)c2ccc(N)cc2)cc1,,,,H37Rv,,MBC,>160 µg/mL
CCN(CC)c1ccc2nc3c(oc2c1)c1c(O)c2c(=O)c(C)c4c(c23)C(=O)[C@@](C)(O/C=C/[C@H](OC)[C@@H](C)[C@@H](OC(C)=O)[C@H](C)[C@H](O)[C@H](C)[C@@H](O)[C@@H](C)/C=C/C=C(/C)C(=O)N1)O4,,,,H37Rv,,MIC,0.07 µg/mL
Fc1ccccc1CNCCc1c[nH]c2ccccc12,,,,H37Ra,,MIC,64 µg/mL
COC(=O)C[C@H]1C(C)(C)C(=O)[C@@H]2CC3=C4CC(=O)O[C@@H](c5ccoc5)[C@]4(C)CC[C@@H]3[C@@]1(C)C2=O,,,,H37Rv,BACTEC,MIC bound,>12.5 µg/mL
c1ccc(Oc2cccc(-c3cc(-c4ccccc4)no3)c2)cc1,1 µg/mL,,,H37Rv,,inhibition,100%
CCOC(=O)Nc1cc2ncc(CN(C)c3ccc(C(=O)OC)cc3)nc2c(N)n1,,,,H37Rv,,EC50,>12.5 µg/mL
CNCc1c[nH]c2ccccc12,,,,H37Ra,,MIC,64 µg/mL
CCOC(=O)Nc1cc(NCc2ccc(S(N)(=O)=O)cc2)c(N)c(N)n1,12.5 µg/mL,,,H37Rv,,inhibition,0%
C=C1C(=O)[C@]23C[C@H]1CC[C@H]2[C@@]12CO[C@H](O)[C@@H]1C(C)(C)[C@@H](O)C[C@@H]2OC3=O,,,,H37Rv,BACTEC,MIC,≥12.5 µg/mL
CN(C)CCC(c1ccc(Br)cc1)c1ccccn1,,,,H37Ra,,MIC,64 µg/mL
OC(c1cc(-c2ccccc2)nc2ccc(Cl)cc12)C1CCCCN1,,,,H37Rv,resazurin,MIC,3.13 µg/mL
Fc1cccc(Cl)c1CNCc1c[nH]c2ccccc12,,,,H37Ra,,MIC,64 µg/mL
COc1cc(-c2nnnn2S(=O)(=O)c2ccc(OC(F)(F)F)cc2)ccc1OCC(O)(Cn1cncn1)c1ccc(F)cc1F,,,,H37Rv,resazurin,MIC100,3.12 µg/mL

Repeating the final 7 entries:

| structure | dose | changes | setting | strain | read by | measure | result |
|---|---|---|---|---|---|---|---|
| CNCc1c[nH]c2ccccc12 |  |  |  | H37Ra |  | MIC | 64 µg/mL |
| CCOC(=O)Nc1cc(NCc2ccc(S(N)(=O)=O)cc2)c(N)c(N)n1 | 12.5 µg/mL |  |  | H37Rv |  | inhibition | 0% |
| C=C1C(=O)[C@]23C[C@H]1CC[C@H]2[C@@]12CO[C@H](O)[C@@H]1C(C)(C)[C@@H](O)C[C@@H]2OC3=O |  |  |  | H37Rv | BACTEC | MIC | ≥12.5 µg/mL |
| CN(C)CCC(c1ccc(Br)cc1)c1ccccn1 |  |  |  | H37Ra |  | MIC | 64 µg/mL |
| OC(c1cc(-c2ccccc2)nc2ccc(Cl)cc12)C1CCCCN1 |  |  |  | H37Rv | resazurin | MIC | 3.13 µg/mL |
| Fc1cccc(Cl)c1CNCc1c[nH]c2ccccc12 |  |  |  | H37Ra |  | MIC | 64 µg/mL |
| COc1cc(-c2nnnn2S(=O)(=O)c2ccc(OC(F)(F)F)cc2)ccc1OCC(O)(Cn1cncn1)c1ccc(F)cc1F |  |  |  | H37Rv | resazurin | MIC100 | 3.12 µg/mL |

An empty or dashed field is not shown. ECn: concentration that inhibits the pathogen or its effect by n%. Percent inhibition refers to the dose given; in toxicity tests it is the harm to the cells. MIC50, MIC90 and the like: level of inhibition, or share of isolates inhibited. Neighbouring rows are from separate reports.